Results of unrelated studies side by side (data: NIAID ChemDB).

Shared fields: cytotoxicity tests; read-out: CC50

Rows are shuffled and stem from different studies. Blank or dashed fields: not listed here. CCn: concentration that lowers growth or viability of the cells by n%.

structure	method	cell line	result
CC1CCN(C(=S)S)CC1.CC1CCNCC1		VERO	<0.41 µg/mL
C[S@@](=O)CCCCN=C=S	WST	NA	33.38 µM
OCC(CO)OCn1c(Br)nc(Cl)c1Cl		HFF	>100 µM
Cc1cccc(/C=N/Nc2cc(C)c3ccccc3n2)n1		VERO	7.4 µg/mL
OC[C@H]1O[C@@H](n2cnc3cc(Cl)c(Cl)cc32)[C@H](O)[C@H]1O		E6SM	10 µg/mL
COc1cc2c3cc1Oc1c4c(cc5c1[C@H](Cc1ccc(cc1)Oc1cc(ccc1OCCOCc1ccccc1)C[C@H]3N(C)CC2)N(C)CC5)OCO4	MTT	U1	0.68 µg/mL
O=c1[nH]c(=O)n([C@@H]2O[C@H](CO)[C@@H](O)[C@@H]2F)cc1C12B3B4B5B6B(B3B1B42)B1B5C61		BFU-E	>100 µM
O=C1C[C@@H](c2ccc(O)cc2)Oc2cc(O)c(-c3c(O)cc4c(c3O)C(=O)C[C@@H](c3ccc(O)cc3)O4)c(O)c21	neutral red	MDCK	12 µg/mL
Nc1ccn(C[C@@H](CO)OCP(=O)(O)O)c(=O)n1		CHO (hOAT1)	3 µM
C1CCNCC1.S=C(S)N1CCCCC1		VERO	13.8 µg/mL
CCCCCCCC(=O)OC1(C)c2ccccc2-c2c1c(-n1ccnc1)nc1ccc(Br)cc21	MTT	U-937	>10 µg/mL
COc1ccc2cc1Oc1ccc(cc1)C[C@H]1c3c(cc4c(c3Oc3cc5c(cc3OC)CCN(C)[C@@H]5C2)OCO4)CCN1C	MTT	U1	1.3 µg/mL
CN(C)c1cc(=O)n(CCOCP(=O)(O)O)c(N)n1		CCRF-CEM	<10 µM
COc1cc([C@@H]2c3cc4c(cc3[C@H](O)[C@H]3COC(=O)[C@H]23)OCO4)cc(OC)c1OC		P-388	0.012 µM
CO[C@H]1/C=C/O[C@@]2(C)Oc3c(C)c(O)c4c(O)c(c(C5SCCS5)c(O)c4c3C2=O)NC(=O)/C(C)=C\C=C\[C@H](C)[C@@H]2OC(C)(C)O[C@@H]([C@@H](C)[C@H](OC(C)=O)[C@@H]1C)[C@@H]2C		VERO	12.43 µg/mL
COc1cc([C@@H]2c3cc4c(cc3[C@H](OC(C)=O)[C@@H]3COC(=O)[C@H]23)OCO4)cc2c1OCO2		MEL-28	2.27 µM
Cc1ccc(Nc2nc3c(s2)C(=O)c2ccccc2C3=O)cc1		VERO	2.4 µg/mL
OCCOCn1c(Cl)nc(Cl)c1Cl		HFF	45 µM
C[C@H](Cn1cnc2c(N)ncnc21)OCP(=O)(O)O	ATP	RPTECs (clinical isolate 2)	>2000 µM
CC1N=Nc2cc(C3=CC[C@@H]4[C@]3(C)CC=C3C=C5[C@@H](O)[C@H](O)[C@@H](N(C)C)C[C@]56CC[C@@]34O6)ccc21	ATP	HUVEC	>1 µM
NC(=O)c1sc2nccc(Nc3ccccc3)c2c1N	MTT	U1	53 µM
Nc1cc(OCCOCP(=O)(O)O)ncn1		CCRF-CEM	<10 µM
CO[C@H]1/C=C/O[C@@]2(C)Oc3c(C)c(O)c4c(O)c(c5c(c4c3C2=O)NC2(CCN(C)CC2)N=5)=NC(=O)/C(C)=C\C=C\[C@H](C)[C@H](O)[C@@H](C)[C@@H](O)[C@@H](C)[C@H](OC(C)=O)[C@@H]1C		VERO	14.88 µg/mL
CN(C)[C@H]1C[C@@]23CC[C@@]4(O2)C(=CC[C@]2(C)C(c5ccc6ccncc6c5)C(=O)C[C@@H]42)C=C3[C@@H](O)[C@@H]1O	ATP	HUVEC	<0.1 µM
Nc1nc(N)c2ncn([C@H]3CO[C@@H](CO)O3)c2n1		HT-1080	>500 µM
COc1cc([C@@H]2c3cc4c(cc3[C@H](OC(C)=O)[C@@H]3COC(=O)[C@@H]23)OCO4)cc2nccnc12		HT-29	0.56 µM
Nc1ccn([C@@H]2CS[C@H](CO)O2)c(=O)n1		HSF	400 µM
CC(C)OC(=O)[C@H](C)N[P@](=O)(CO[C@H](C)Cn1cnc2c(N)ncnc21)Oc1ccccc1	ATP	RPTECs (clinical isolate 2)	8.2 µM
CONCCOc1ccc2cc1Oc1ccc(cc1)C[C@H]1c3c(cc4c(c3Oc3cc5c(cc3OC)CCN(C)[C@@H]5C2)OCO4)CCN1C	MTT	U1	1.3 µg/mL
Cc1cn([C@H]2C[C@H](N=[N+]=[N-])[C@@H](CO)O2)c(=O)[nH]c1=O		DU145	>10 µM
Nc1nc2c(nnn2C[C@H]2CC[C@@H](CO)C2)c(=O)[nH]1		E6SM	>200 µg/mL
CCC(=O)O/N=C1\c2ccccc2-c2c1c(N1CCN(c3ccccn3)CC1)nc1ccc(Br)cc21	MTT	U-937	>20 µg/mL
Nc1ccc2nc3ccc(=O)cc-3n(-c3ccccc3)c2c1		VERO	2.6 µg/mL
C[C@]12CC=C3C=C4[C@@H](O)[C@H](O)[C@@H](N)C[C@]45CC[C@]3(O5)[C@@H]1CC=C2c1ccc2cnncc2c1	ATP	HUVEC	>0.1 µM
OCCOC(CO)n1cnc2cc(Cl)c(Cl)cc21		E6SM	≥400 µg/mL
O=c1ccc2nc3ccccc3sc-2c1		VERO	8.18 µg/mL
Nc1nc(Cl)c2ncn(C[C@H]3CC[C@@H](CO)C3)c2n1		E6SM	≥1 µg/mL
C=C1[C@H](CO)[C@@H](O)C[C@@H]1n1cnc2c(=O)[nH]c(N)nc21	MTT	HepG2 2.2.15	73 µM
Nc1nc(OCCOCP(=O)(O)O)cc(OCCOCP(=O)(O)O)n1		HeLa S3	<10 µM
Brc1nc(Br)c(Br)[nH]1		HFF	75 µM
O=c1cc(-c2ccc(Oc3c(O)cc4oc(-c5ccc(O)cc5)cc(=O)c4c3O)cc2)oc2cc(O)cc(O)c12	visual reading	MA-104	2.5 µg/mL
CC1N(C)CCC1(C)CN1c2ccccc2Sc2ccccc21.Cl		VERO	2.6 µg/mL
CCCCC(=O)O/N=C1\c2ccccc2-c2c1c(-n1ccnc1)nc1ccc(Br)cc21	MTT	U-937	>20 µg/mL
CCCCN(C)CCNc1cc(C)nc(Nc2nc3ccc(Cl)cc3[nH]2)n1		VERO	1.89 µg/mL
O[C@@H]1[C@@H](OCc2ccccc2)[C@@H](COCc2ccccc2)O[C@H]1n1cnc2cc(Cl)c(Cl)cc21		E6SM	40 µg/mL
O=C(N/N=C(\c1ccccc1)c1ccc(O)cc1O)c1ccncc1		VERO	414 µg/mL
Nc1nc2c(ncn2[C@H]2CO[C@@H](CO)O2)c(=O)[nH]1		HSF	≥500 µM
Nc1nc(Cl)c2nnn(C[C@H]3CC[C@@H](CO)C3)c2n1		E6SM	≥400 µg/mL
OCCOCn1c(Br)nc(Cl)c1Cl		HFF	>100 µM
CN(C)[C@H]1C[C@@]23CC[C@@]4(O2)C(=CC[C@]2(C)C(C#Cc5cccnc5)=CC[C@H]24)C=C3[C@@H](O)[C@@H]1O	ATP	HUVEC	>1 µM
OC[C@H]1O[C@@H](n2cnc3cc(Cl)c(Cl)cc32)[C@@H](O)[C@H]1O		E6SM	100 µg/mL
CC1(C)OCC([C@H]2O[C@@H]3OC(C)(C)O[C@@H]3/C2=N/NC(=O)c2cc3cc(OCc4ccccc4)ccc3[nH]2)O1		VERO	5.9 µg/mL
Nc1nc(N)c2ncn(C[C@H]3CC[C@@H](CO)C3)c2n1		E6SM	>400 µg/mL
COC(=O)[C@@H]1[C@H](c2cc(OC)c3nccnc3c2)c2cc3c(cc2C2=NOC[C@@H]21)OCO3		MEL-28	2.8 µM
OC[C@H]1O[C@@H](n2c(Br)nc(Br)c2Br)[C@H](O)[C@H]1O		HFF	>100 µM
CCCCCN(CCCCC)CCCNc1ccc(C)c2sc3ccccc3c(=O)c12		VERO	17.1 µg/mL
COc1ccc(-c2cc(=O)c3c(OC)cc(OC)c([C@H]4C(=O)c5c(OC)cc(OC)cc5O[C@@H]4c4ccc(OC)cc4)c3o2)cc1	visual reading	MA-104	~30 µg/mL
CCCCCCCCC(=O)O/N=C1\c2ccccc2-c2c1c(-n1ccnc1)nc1ccc(Br)cc21	MTT	U-937	>100 µg/mL
CN(C)[C@H]1C[C@@]23CC[C@@]4(O2)C(=CC[C@]2(C)C(c5ccc6ncncc6c5)=CC[C@H]24)C=C3[C@@H](O)[C@@H]1O	ATP	HUVEC	<0.1 µM
O=C1C2=C(c3ccccc31)C(c1ccc([N+](=O)[O-])cc1)NC(=S)N2		VERO	>10 µg/mL

9 of the rows above, restated:

structure,method,cell line,result
CC1N=Nc2cc(C3=CC[C@@H]4[C@]3(C)CC=C3C=C5[C@@H](O)[C@H](O)[C@@H](N(C)C)C[C@]56CC[C@@]34O6)ccc21,ATP,HUVEC,>1 µM
Cc1cccc(/C=N/Nc2cc(C)c3ccccc3n2)n1,,VERO,7.4 µg/mL
C1CCNCC1.S=C(S)N1CCCCC1,,VERO,13.8 µg/mL
Nc1ccn(C[C@@H](CO)OCP(=O)(O)O)c(=O)n1,,CHO (hOAT1),3 µM
Nc1nc(N)c2ncn(C[C@H]3CC[C@@H](CO)C3)c2n1,,E6SM,>400 µg/mL
COc1cc([C@@H]2c3cc4c(cc3[C@H](OC(C)=O)[C@@H]3COC(=O)[C@H]23)OCO4)cc2c1OCO2,,MEL-28,2.27 µM
Nc1nc2c(nnn2C[C@H]2CC[C@@H](CO)C2)c(=O)[nH]1,,E6SM,>200 µg/mL
CCCCC(=O)O/N=C1\c2ccccc2-c2c1c(-n1ccnc1)nc1ccc(Br)cc21,MTT,U-937,>20 µg/mL
COc1ccc(-c2cc(=O)c3c(OC)cc(OC)c([C@H]4C(=O)c5c(OC)cc(OC)cc5O[C@@H]4c4ccc(OC)cc4)c3o2)cc1,visual reading,MA-104,~30 µg/mL